Source: PMC8753592, “Long-acting capsid inhibitor protects macaques from repeat SHIV challenges” (Nature, 2021)
“Also recorded” adds a separate entry of the source.

System: SHIV capsid (gag region)
Assay: Plasma virus genotypic (capsid resistance) analysis
Format: in vivo, rhesus macaques
Details: nine viraemic treated animals, 24-week study
Method: Total RNA was extracted from 50-µl plasma aliquots obtained from each viraemic monkey using the MagMAX-96 Viral RNA Isolation kit (Life Technologies) in conjunction with the Thermo Scientific KingFisher Flex automated extraction platform and were eluted in 60 μl AVE buffer. The portion of gag encoding capsid in each sample was then individually amplified by RT–PCR using a SuperScript IV One-Step RT–PCR System (Life Technologies) according to the manufacturer’s recommended protocol. Amplification of the SHIV capsid-encoding region in each sample was performed using primers SIV-CA-F (5′-[…]-3′) and SIV-CA-R (5′-[…]-3′), and the products were subjected to population-level bulk sequencing at Elim Biopharmaceuticals using the same primer set. To identify codon changes, Sequencher version 4.9 (Gene Codes) was used to align DNA encoding sequences of the SHIV capsid for each sample with that of the parent virus obtained from each infected placebo-treated control animal. This provided a control for potential genetic drift that might have occurred during the 24-week efficacy study.

CC(C)(C#Cc1ccc(-c2ccc(Cl)c3c(NS(=O)(=O)C4CC4)nn(CC(F)F)c23)c([C@H](Cc2cc(F)cc(F)c2)NC(=O)Cn2nc(C(F)F)c3c2C(F)(F)[C@@H]2C[C@H]32)n1)S(C)(=O)=O [GS-CA1]
emergence of capsid variants associated with resistance: no study animal showed emergence of variants associated with GS-CA1 resistance; also recorded: no resistance mutations
